Compound potency records, mixed from different reports. Data source: NIAID ChemDB in PubChem.

Shared fields: target-level tests; organism: HIV-1; protein: Reverse transcriptase; method: nucleotide incorporation / radiometric; read-out: IC50

Two numbers with a dash give a range or band. An empty or dashed field is not shown. ICn is the concentration giving n% inhibition. Rows are shuffled and stem from different studies.

compound	mutations	strain or isolate	conditions	result
COC(=O)C(OCC1OC(n2cc(C)c(=O)[nH]c2=O)CC1N=[N+]=[N-])P(=O)(O)OP(=O)(O)O	-	-	-	141 µg/mL
Cc1occc1C(=S)Nc1ccc(Cl)c(C(=O)OCC2CC2)c1	RT-L108I	-	-	23 µM
Cc1cn(C2CC(N=[N+]=[N-])C(COC(C(=O)O)P(=O)(O)OP(=O)(O)OP(=O)(O)O)O2)c(=O)[nH]c1=O	-	-	-	46 µg/mL
CCN1c2ncccc2C(=O)N(C)c2ccc(-c3c[nH]c(C(C)=O)c3)nc21	-	WT	-	<1 µM
CC(C)(O)CCc1c(O[C@@H]2O[C@H](CO)[C@@H](O)[C@H](O)[C@H]2O)cc2oc(-c3ccc(O)c(O)c3)c(O)c(=O)c2c1O	-	-	-	>200 µg/mL
CCCN1c2nc(-c3cn[nH]c3)ccc2NC(=O)c2cccnc21	-	WT	-	<1 µM
CCCc1cc(=O)oc2c3c(c4c(c12)OC(C)(C)C=C4)O[C@H](C)C[C@@H]3O	RT-Y181C	-	-	0.61 µM
Nc1ccn([C@@H]2O[C@H](COP(=O)(O)O[C@@H]3[C@H](O)[C@@H](COP(=O)(O)O[C@@H]4[C@H](O)[C@@H](COP(=O)(O)OP(=O)(O)OP(=O)(O)O)O[C@H]4n4ccc(N)nc4=O)O[C@H]3n3ccc(N)nc3=O)[C@@H](O)[C@H]2O)c(=O)n1	-	-	-	132 µM
Cc1cn(C2CC(N=[N+]=[N-])C(COC(C(=O)O)P(=O)(O)O)O2)c(=O)[nH]c1=O	-	-	-	89 µg/mL
COc1ccc(N2CCN(CC(=O)C(C)N3C(=O)c4ccccc4C3=O)CC2)cc1	-	-	-	2530 µM
COc1cc(Cc2cnc(/N=C3\C(=O)N(CN4CCN(c5ccc6c(c5F)c(=O)c(C(=O)O)cn6C5CC5)CC4)c4ccc(C)cc43)nc2N)cc(OC)c1OC	-	-	-	28.4 µM
CCn1cc(C(=O)O)c(=O)c2cc(F)c(N3CCN(CN4C(=O)C(=Nc5ccc(S(=O)(=O)Nc6nc(C)cc(C)n6)cc5)c5cc(F)ccc54)C(C)C3)c(F)c21	-	-	-	20.2 µM
C=CCO/N=C/c1cc(NC(=S)c2ccoc2C)ccc1Cl	RT-K103N	-	-	>50 µM
COc1cc(O)c2c(c1)OC(c1ccc(Oc3cc(-c4cc(=O)c5c(O)cc(O)cc5o4)ccc3O)cc1)CC2=O	-	-	-	2.4 µg/mL
CC(C(=O)CN1CCN(c2ccc(Br)cc2)CC1)N1C(=O)c2ccccc2C1=O	-	-	-	63.76 µM
CCN1c2ncccc2C(=O)N(C)c2ccc(-c3cc4cc(OC)ccc4[nH]3)nc21	RT-Y181C	-	-	>1 µM
CC(C(=O)CN1CCN(c2ccccc2Cl)CC1)N1C(=O)c2ccccc2C1=O	-	-	-	126.8 µM
COc1cc(/C=C/C(=O)OC[C@H]2O[C@@H](Oc3c(-c4ccc(O)c(O)c4)oc4cc(O)cc(O)c4c3=O)[C@H](O)[C@@H](O)[C@H]2O)ccc1O	-	-	-	25.62 µg/mL
CC(C)=CCc1c(O[C@@H]2O[C@H](CO)[C@@H](O)[C@H](O)[C@H]2O)cc2oc(-c3ccc(O)c(O)c3)c(O)c(=O)c2c1O	-	-	-	>200 µg/mL
CCN1c2ncccc2C(=O)N(C)c2ccc(-c3cc[nH]c3)nc21	-	WT	-	<1 µM
CC(C(=O)CN1CCN(c2ccc(C(F)(F)F)cc2)CC1)N1C(=O)c2ccccc2C1=O	-	-	-	118 µM
CN1C(=O)c2cccnc2N(C2CC2)c2nc(-c3cn[nH]c3)ccc21	RT-Y181C	-	-	<1 µM
Nc1ncnc2c1ncn2[C@@H]1O[C@H](COP(=O)(S)O[C@@H]2[C@H](O)[C@@H](COP(O)(=S)O[C@@H]3[C@H](O)[C@@H](COP([O-])(=S)OP(=O)(O)OP(=O)(O)O)O[C@H]3n3cnc4c(N)ncnc43)O[C@H]2n2cnc3c(N)ncnc32)[C@@H](O)[C@H]1O	-	-	-	0.5 µM
Cc1occc1C(=S)Nc1ccc(Cl)c(/C=N/OC(C)(C)C)c1	RT-P236L	-	-	15 µM
Nc1cc(OC[C@H]2CC[C@@H](COP(=O)([O-])OP(=O)([O-])OP(=O)([O-])O)O2)nc(N)n1	-	-	Mn2+	>500 µM
CCN1c2ncc(CCOc3ccc(/C=C(\C)C(=O)O)c4ccccc34)cc2C(=O)Nc2c(C)ccnc21	RT-V106A	-	-	0.1–1 µM
CCN1c2ncccc2C(=O)N(C)c2ccc(-c3ccc[nH]3)nc21	RT-Y181C	-	-	<1 µM
CCN1c2ncc(CCOc3ccc(CC(=O)O)c4c3CCCC4)cc2C(=O)N(C)c2ccc(Cl)nc21	-	WT	-	<0.1 µM
CCN1c2ncccc2C(=O)N(C)c2ccc(-c3cnn(C)c3)nc21	RT-Y188L	-	-	>1 µM
O=c1cc(-c2ccc(O)c(-c3c(O)cc4oc(-c5ccc(O)cc5)cc(=O)c4c3O)c2)oc2cc(O)cc(O)c12	-	-	-	144.4 µM
Cc1cc(S(N)(=O)=O)ccc1NC(=O)COc1ccccc1C(=O)c1cc(Cl)cc(C#N)c1	-	WT	-	0.0082 µM
CCN1c2ncc(CCOc3ccc4cc(CC(=O)NN)ccc4c3)cc2C(=O)N(C)c2cccnc21	-	WT	-	<0.1 µM
CCN1c2nc(C(F)(F)F)ccc2NC(=O)c2cc(CCOc3cc[n+]([O-])c4ccccc34)cnc21	RT-Y188L	-	-	0.578 µM
CCNC(=O)N1CCc2c(OCCc3cnc4c(c3)C(=O)N(C)c3cccnc3N4CC)ccc(C(=O)O)c2C1	RT-K103N Y181C	-	-	0.1–1 µM
CCCN1c2ncccc2C(=O)N(C)c2ccc(-c3cn[nH]c3)nc21	RT-Y181C	-	-	<1 µM

The last 4 rows once more:

{"compound": "CCN1c2ncc(CCOc3ccc4cc(CC(=O)NN)ccc4c3)cc2C(=O)N(C)c2cccnc21", "strain or isolate": "WT", "result": "<0.1 µM"}
{"compound": "CCN1c2nc(C(F)(F)F)ccc2NC(=O)c2cc(CCOc3cc[n+]([O-])c4ccccc34)cnc21", "mutations": "RT-Y188L", "result": "0.578 µM"}
{"compound": "CCNC(=O)N1CCc2c(OCCc3cnc4c(c3)C(=O)N(C)c3cccnc3N4CC)ccc(C(=O)O)c2C1", "mutations": "RT-K103N Y181C", "result": "0.1–1 µM"}
{"compound": "CCCN1c2ncccc2C(=O)N(C)c2ccc(-c3cn[nH]c3)nc21", "mutations": "RT-Y181C", "result": "<1 µM"}